Compound potency records, mixed from different reports. Data source: NIAID ChemDB in PubChem.

Common to all: growth or infection tests; species: Candida albicans

Neighbouring rows are from separate reports. ECn is the concentration giving n% inhibition of infection, replication or growth. MIC50, MIC90 and the like: level of inhibition, or share of isolates inhibited. a–b is a range or a potency band. Blank or dashed fields: not listed here.

| SMILES | strain or isolate | setting | method | measure | result |
|---|---|---|---|---|---|
| CCn1c2ccccc2c2cnn(-c3ccc(C)c(C)c3)c(=O)c21 | - | - | broth dilution | MIC | 250 µg/mL |
| CCCCCCCCCC(=O)NC(CCCN)C(=O)NC(CCCN)C(=O)NC(CCCN)C(=O)NC(CCCN)C(=O)NC(CCCN)C(N)=O | ATCC 24433 | - | broth dilution | MIC | 100 µg/mL |
| COC(=O)C1C(O)CC2(O)CC(O)CC(O)CC(O)CC(O)CC(=O)CC(O)CC(=O)OC(C(C)CCC(O)CC(=O)c3ccc(N)cc3)C(C)/C=C/C=C/C=C/C=C/C=C/C=C/C=C/C(O[C@@H]3O[C@H](C)[C@@H](O)[C@H](N)[C@@H]3O)CC1O2 | 10 isolates | - | - | MIC | 0.25–0.5 µg/mL |
| O=C(Cc1ccc(Br)cc1)Nc1cc([N+](=O)[O-])ccc1O | - | - | - | MIC | 12.5 µg/mL |
| Cn1c2ccccc2c2cnn(-c3ccc(F)cc3)c(=O)c21 | - | - | broth dilution | MIC | 250 µg/mL |
| CCC(c1ccc(OC)cc1)C(O)c1ccc(OC)cc1 | 28 strains | - | - | EC50 | >256 µg/mL |
| O=c1c2[nH]c3ccccc3c2cnn1-c1ccccc1 | - | - | broth dilution | MIC | 250 µg/mL |
| CC(=O)Nc1ccc(OCC(=O)N2N=C(c3nc4ccccc4[nH]3)CC2c2ccccc2[N+](=O)[O-])cc1 | MTCC 227 | - | - | MIC100 | 100 µg/mL |
| O[C@](Cn1cncn1)(Cn1cnc(/C=C/c2ccc(OCC(F)(F)C(F)F)cc2)n1)c1ccc(F)cc1F | 3 isolates fluconazole-susceptible | - | - | MIC | ≤0.25 µg/mL |
| COc1cccc(C2CC(c3nc4ccccc4[nH]3)=NN2C(=O)COc2ccc(NC(C)=O)cc2)c1 | MTCC 227 | - | - | MIC100 | 1000 µg/mL |
| CCC(C)CC(C)CCCCCCCCC(=O)N[C@H]1C[C@@H](O)[C@@H](O)NC(=O)[C@@H]2[C@@H](O)CCN2C(=O)[C@H]([C@H](O)CCN=CNN)NC(=O)[C@H]([C@H](O)Cc2ccc(O)cc2)NC(=O)[C@@H]2C[C@@H](O)CN2C(=O)[C@H]([C@@H](C)O)NC1=O | MY1055 | - | - | MFC | <0.06 µg/mL |
| CCCCCCCC(=O)NC(CCCN)C(=O)NC(CCCN)C(=O)NC(CCCN)C(=O)NC(CCCN)C(N)=O | ATCC 24433 | - | broth dilution | MIC | >100 µg/mL |
| CN1C(C(=O)Nc2nccs2)=C(O)c2ccccc2S1(=O)=O | 1760 | biofilm | - | MIC | >1000 µg/mL |
| CCn1c2ccccc2c2cn[nH]c(=O)c21 | - | - | broth dilution | MIC | 250 µg/mL |
| COc1ccc(/C=N/c2c(C(=O)N/N=C/c3cc4ccccc4nc3Cl)sc(=S)n2-c2ccccc2)cc1 | MTCC 227 | - | broth dilution | MIC | >1000 µg/mL |
| COc1ccc(CC(c2ccc(OC)cc2)n2cncn2)cc1 | 28 strains | - | - | EC50 | <256 µg/mL |
| O=C1C[C@@H](c2ccc(O)cc2)Oc2cc(O)cc(O)c21 | - | - | - | MIC | >250 µg/mL |
| CCCCN1/C(=C/C(=O)c2ccccc2)Sc2ccccc21 | ATCC 14053 | - | - | MIC | 50 µg/mL |
| CCC(c1ccc(Cl)cc1)C(c1ccc(OC)cc1)n1ccnc1 | 28 strains | - | - | EC50 | <256 µg/mL |
| Cc1nc2c(s1)C(=O)C(Nc1ccc(Cl)cc1)=C(Cl)C2=O | KCCM 50235 | - | broth dilution | MIC | 50 µg/mL |
| O=[N+]([O-])c1ccc2oc(-c3ccccc3)nc2c1 | - | - | - | MIC | 12.5 µg/mL |
| CSc1ccccc1NC1CCCCCCCCCCC1.CSc1ccccc1NC1CCCCCCCCCCC1 | ATCC 14053 | - | - | MIC | >100 µg/mL |
| NC[C@H]1O[C@H](O[C@H]2[C@H](O)[C@@H](O[C@H]3O[C@H](CO)[C@@H](O)[C@H](N)[C@H]3O)[C@H](N)C[C@@H]2N)[C@H](O)[C@@H](O)[C@@H]1O | ATCC 2002 | - | broth dilution | MIC | 1.2 µg/mL |
| COc1ccc(/C=N/c2c(C(=O)N/N=C/c3cc4ccccc4nc3Cl)sc(=S)n2-c2ccccc2)cc1OC | MTCC 227 | - | broth dilution | MIC | >1000 µg/mL |
| CCC1CCCC(CC)C(=O)NCCCC(CC)C(OC2OC(C)C(O)C(N)C2OC2OC(CO)C(O)C(O)C2O)CC1 | 12 strains | - | - | Mean MIC | 32 µg/mL |
| COc1cc(/C=N/c2c(C(=O)N/N=C/c3cc4ccccc4nc3Cl)sc(=S)n2-c2ccccc2)ccc1O | MTCC 227 | - | broth dilution | MIC | >1000 µg/mL |
| CCCCCCCCOc1ccc(-c2ccc(C(=O)NC3CC(NCCN)CNC(=O)[C@@H]4[C@@H](O)[C@@H](C)CN4C(=O)[C@@H](CO)NC(=O)[C@H]([C@H](O)Cc4ccccc4)NC(=O)[C@@H]4C[C@@H](O)CN4C(=O)[C@H]([C@@H](C)O)NC3=O)cc2)cc1 | 444 (fluconazole-susceptible) | - | - | MIC80 | 0.05 µg/mL |
| CCCCCCCCCC(=O)NC(CCCN)C(=O)NC(CCCN)C(N)=O | ATCC 24433 | - | broth dilution | MIC | >100 µg/mL |
| CC(=O)Nc1ccc(OCC(=O)N2N=C(c3nc4ccccc4[nH]3)CC2c2cccc(C)c2)cc1 | MTCC 227 | - | - | MIC100 | 1000 µg/mL |
| CCCCCCCCCCCCCCCC(=O)NC(CCCN)C(N)=O | ATCC 24433 | - | broth dilution | MIC | >100 µg/mL |
| CC[C@H]1O[C@]2(CC[C@@H]1C)CC1C[C@@H](C/C=C(\C)C[C@@H](C)/C=C/C=C3\CO[C@@H]4C(O)C(C)=C[C@@](C)(C(=O)O1)[C@]34O)O2 | SC5314 | - | broth dilution / agar diffusion | MIC | 6.4 µg/mL |
| Cc1c(O)cccc1C(=O)N[C@@H](CSc1ccccc1)[C@H](O)CN1C[C@H]2CCCC[C@H]2C[C@H]1C(=O)NC(C)(C)C | I68A | - | - | MIC | 64 µg/mL |
| COc1ccc(NC2=C(Cl)C(=O)c3nc(C)sc3C2=O)cc1 | KCCM 50235 | - | broth dilution | MIC | 1.6 µg/mL |
| CN(C)c1ccc(/C=N/c2c(C(=O)N/N=C/c3cc4ccccc4nc3Cl)sc(=S)n2-c2ccccc2)cc1 | MTCC 227 | - | broth dilution | MIC | 1000 µg/mL |
| COc1ccc(CC(c2ccc(OC)cc2)n2cnnc2)cc1 | 28 strains | - | - | MIC90 | >256 µg/mL |
| Cc1ccc(-n2ncc3c([nH]c4ccccc43)c2=O)cc1C | - | - | broth dilution | MIC | 250 µg/mL |
| O=C(N/N=C/c1cc2ccccc2nc1Cl)c1sc(=S)n(-c2ccccc2)c1/N=C/c1ccccc1O | MTCC 227 | - | broth dilution | MIC | 250 µg/mL |
| CC(C)=CCC/C(C)=C/CC/C(C)=C/CCCN(C)CC/C=C(\C)CCC1OC1(C)C | - | - | - | MIC | >200 µM |
| O=C(c1ccccc1)N1CCC(n2cc(-c3noc(=O)[nH]3)nn2)CC1 | NCIM3471 | - | agar | MIC | 40 µg/mL |
| CC(=O)Nc1ccc(OCC(=O)N2N=C(c3nc4ccccc4[nH]3)CC2c2ccc(O)cc2)cc1 | MTCC 227 | - | - | MIC100 | 500 µg/mL |
| COC(=O)c1c(N)oc2c1cc(O)c1sc(C)nc12 | KCCM 50235 | - | broth dilution | MIC | 100 µg/mL |
| CC(=O)Nc1ccc(OCC(=O)N2N=C(c3nc4ccccc4[nH]3)CC2c2cccc(Br)c2)cc1 | MTCC 227 | - | - | MIC100 | 500 µg/mL |
| CCCCCCCC(=O)NC(CCCN)C(N)=O | ATCC 24433 | - | broth dilution | MIC | >100 µg/mL |
| CCC(C(=O)c1ccc(OC)cc1)c1ccc(Cl)cc1 | 28 strains | - | - | EC50 | >256 µg/mL |
| Cc1ccc(NC2=C(Cl)C(=O)c3nc(C)sc3C2=O)cc1 | KCCM 50235 | - | broth dilution | MIC | 12.5 µg/mL |
| CC1=C[C@H]2C(=O)OC3C[C@@H](C/C=C(\C)C[C@@H](C)/C=C/C=C4\CO[C@H](/C1=N\O)[C@@]42O)O[C@@]1(CC[C@H](C)[C@@H](C)O1)C3 | SC5314 | - | broth dilution / agar diffusion | MIC | 25.6 µg/mL |
| CC(=C/C=C/C(=O)O)/C=C/C=C(\C)C(O)C(C)C(=O)O[C@H]1C[C@H](C)C=C2C=C[C@@]3(C)O[C@@H](O)CC(=O)[C@]3(C)[C@H]21 | ATCC 10231 | - | - | MIC | 3.12 µg/mL |
| CCCCCCCCCCCC(=O)NC(CCCN)C(=O)NC(CCCN)C(=O)NC(CCCN)C(=O)NC(CCCN)C(N)=O | ATCC 24433 | - | broth dilution | MIC | 6.25 µg/mL |
| CC1OC(O[C@@]2(C)CC(=O)[C@]3(O)C4=C(C=C[C@]3(O)C2)C(=O)c2c(ccc(C3CCC(OC5CCC(O)C(C)O5)C(C)O3)c2O)C4=O)C=CC1=O | 6 strains | - | - | MIC | 95 µg/mL |
| CCCCCCCCCCCCCCCC(=O)NC(CCCCN)C(=O)NC(CCCCN)C(N)=O | 4887 | - | broth dilution | MIC | 0.5 µg/mL |
| C[N+](C)(C)CCOP(=O)([O-])OCCCCCCCCCCCCCCCCCCCCCCCCOP(=O)([O-])OCC[N+](C)(C)C | B311 | - | - | MIC | 6.25 µg/mL |
| CCCC(=O)/C=C1\Sc2cc(F)ccc2N1C1=CCCCCC1 | ATCC 10231 | - | - | MIC | ≥100 µg/mL |
| CCOC(=O)c1cc2ccccc2n1C | - | - | broth dilution | MIC | 250 µg/mL |
| CC(=O)Nc1ccc(OCC(=O)N2N=C(c3nc4ccccc4[nH]3)CC2c2ccccc2C)cc1 | MTCC 227 | - | - | MIC100 | 500 µg/mL |
| Cn1c2ccccc2c2cnn(-c3ccccc3)c(=O)c21 | - | - | broth dilution | MIC | 250 µg/mL |
| CCC(C)CC(C)CCCCCCCCC(=O)N[C@H]1C[C@@H](O)[C@@H](O)NC(=O)[C@@H]2[C@@H](O)CCN2C(=O)[C@H]([C@H](O)CCN(C)C)NC(=O)[C@H]([C@H](O)Cc2ccc(O)cc2)NC(=O)[C@@H]2C[C@@H](O)CN2C(=O)[C@H]([C@@H](C)O)NC1=O | MY1055 | - | - | MFC | 1 µg/mL |
| CC(C)C(=O)/C=C1/Sc2ccccc2N1Cc1ccccc1 | ATCC 10231 | - | - | MIC | ≥100 µg/mL |
| CCn1c2ccccc2c2cnn(-c3ccccc3)c(=O)c21 | - | - | broth dilution | MIC | 250 µg/mL |
| O=C(Cc1ccccc1)Nc1cc([N+](=O)[O-])ccc1O | - | - | - | MIC | 12.5 µg/mL |
| C[C@@H]1CCC2(OC1)OC1CC3C4C[C@H](OC5O[C@@H](CO)[C@H](O)[C@@H](O)[C@@H]5O)[C@H]5C[C@@H](OC6O[C@H](CO)[C@@H](O)[C@H](O)[C@H]6O)CC[C@]5(C)C4CC[C@]3(C)C1[C@@H]2C | ATCC 90028 | - | - | MFC | 20 µg/mL |
| Cc1nc2c(s1)C(=O)C(Nc1ccccc1)=C(Cl)C2=O | KCCM 50235 | - | broth dilution | MIC | 12.5 µg/mL |
| CC(=O)Nc1ccc(OCC(=O)N2N=C(c3nc4ccccc4[nH]3)CC2c2cccc(Cl)c2)cc1 | MTCC 227 | - | - | MIC100 | 250 µg/mL |
| Cc1ccc(/C=N/c2c(C(=O)N/N=C/c3cc4ccccc4nc3Cl)sc(=S)n2-c2ccccc2)cc1 | MTCC 227 | - | broth dilution | MIC | >1000 µg/mL |
| CCOc1ccc(CC(=O)Nc2cc([N+](=O)[O-])ccc2O)cc1 | - | - | - | MIC | 12.5 µg/mL |
| CC(C)C(=O)/C=C1\Sc2ccccc2N1/C1=C/CCCCCCCCCC1 | ATCC 14053 | - | - | MIC | >100 µg/mL |

The last 7 rows once more:

SMILES	strain or isolate	setting	method	measure	result
O=C(Cc1ccccc1)Nc1cc([N+](=O)[O-])ccc1O	-	-	-	MIC	12.5 µg/mL
C[C@@H]1CCC2(OC1)OC1CC3C4C[C@H](OC5O[C@@H](CO)[C@H](O)[C@@H](O)[C@@H]5O)[C@H]5C[C@@H](OC6O[C@H](CO)[C@@H](O)[C@H](O)[C@H]6O)CC[C@]5(C)C4CC[C@]3(C)C1[C@@H]2C	ATCC 90028	-	-	MFC	20 µg/mL
Cc1nc2c(s1)C(=O)C(Nc1ccccc1)=C(Cl)C2=O	KCCM 50235	-	broth dilution	MIC	12.5 µg/mL
CC(=O)Nc1ccc(OCC(=O)N2N=C(c3nc4ccccc4[nH]3)CC2c2cccc(Cl)c2)cc1	MTCC 227	-	-	MIC100	250 µg/mL
Cc1ccc(/C=N/c2c(C(=O)N/N=C/c3cc4ccccc4nc3Cl)sc(=S)n2-c2ccccc2)cc1	MTCC 227	-	broth dilution	MIC	>1000 µg/mL
CCOc1ccc(CC(=O)Nc2cc([N+](=O)[O-])ccc2O)cc1	-	-	-	MIC	12.5 µg/mL
CC(C)C(=O)/C=C1\Sc2ccccc2N1/C1=C/CCCCCCCCCC1	ATCC 14053	-	-	MIC	>100 µg/mL